The subject of the assay is picornaviruses (CVB1, HRV-A2, HRV-A23, EV-68). The assay can be described thus: Anti-picornavirus cytopathic effect (CPE) reduction assay on HeLa H1 cells. Particulars: read-out: EC50 values of the compounds determined in the anti-picornavirus assay, 48 h, category from averaging the EC50 values from four picornaviruses (CVB1, HRV-A2, HRV-A23, EV68). As for the experimental part: The antiviral activity of selected compounds was tested using a cytopathic effect (CPE) reduction assay on HeLa H1 cells (ATCC CRL-1958). Briefly, cells were seeded in 96-well dishes (2×10^4 cells/well) in DMEM medium (Life technologies) supplemented with 10% FBS and PenStrep solution (100 U/mL Penicillin and 100 μg/mL streptomycin) and incubated at 37° C., 5% CO2 ovemight. The next day, cells were pre-treated with serial dilutions of the compound in DMEM medium supplemented with 2% FBS and PenStrep for 2 h at 37° C., 5% CO2. […] After that, plates were equilibrated to RT and subsequently, fluorescence was recorded (Excitation wavelength: 560 nm; emission wavelength: 590 nm) using a SpectraMax M5 multimode plate reader. Viability of cells was calculated according to the formula: V=(RFUCpd−RFUVeh/(RFUM−RFUVeh), where RFUCpd refers to infected and compound-treated cells, RFUVeh to infected and vehicle-treated cells and RFUM to uninfected and vehicle treated cells. Half-maximal effective concentrations (EC50) were calculated by non-linear regression analysis using the drc package in R (R Development. Core Team, 2005). EC50 categories as presented in Table 2 were calculated by averaging the EC50 values from four picornaviruses (CVB1, HRV-A2, HRV-A23, EV68).
(Protection from cytopathic effect is a common read-out in antiviral testing.)

pEC50: −log10 of the molar value.

The values that follow come from patent US11091428B2 (HAPLOGEN GMBH, priority 2016, dated 2021).

In the case of `CC(C)C(=O)NCCCNC(=O)C(=O)[C@H]1CCC(=O)N1Cc1ccccc1`, the pEC50 was 5.00 to 6.00.

What is called pEC50 is −log10 of the EC50, conventionally taken in molar units.
